# Biological target: human ACE2(H34Y)
# Assay: SPR
# Conditions: domain or fragment
substance,measurement,value
WT SARS-CoV-2 RBD (residues Thr333-Pro527) (from UniProt P0DTC2 333-527),Kd,76 nM
